# PubChem BioAssay AID504761 – Drosophila RNAi Screening Center | 2011
# Test: 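Insect host genes that dengue virus relies on to spread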 (primary screen)
# System: D.Mel-2 cells from Drosophila
# Reagent: long dsRNA against Drosophila genes
# Challenge: infection with dengue virus type 2; dose and infection time not stated
# Measurement: 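Cells stained for dengue envelope protein and imaged; percent of infected cells per well on duplicate plates, ranked by infection, with stained nuclei counted for cell number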
# Reading the numbers: infection score: higher = more virus-infected cells; cell count: higher = more cells in the well
# Rule for the call: 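Very low infection ranking in both replicate wells (chance probability at most 0.065), then a retest showing infection dropped 1.5-fold or more at p below 0.05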
# Calls: active = confirmed: knock-down lowers infection; inactive = not picked or not confirmed
# The screen tested about 22,000 reagents; this is an unselected part of those with a known target gene and a result. Over the whole deposit, 116 (0.52%) were called active. 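Calls depend on retest data that are not deposited; infection was ranked per plate without normalising between plates; the unit of the infection score is not given.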 Raw values vary from plate to plate and are shown uncorrected. A number with no mark means an inactive call. A plus sign joins genes that one reagent is predicted to hit. Not stated in the record: the amount of reagent, the time to read-out.
gene knocked down,PubChem SID,"infection score, replicate 1","infection score, replicate 2","cell count, replicate 1","cell count, replicate 2"
CG31467,SID104195840,24,15.2,3998,5408
CG31467,SID104207077,11,16.8,5349,5848
Ku80,SID104182491,4.45,7.21,6915,6398
Ku80,SID104205405,2.63,5.19,6312,6128
Sytalpha,SID104182661,7.48,17.4,6374,4733
Mcad,SID104189663,9.95,10.8,6381,6000
Mcad,SID104204524,5.43,1,6633,6586
Cdk7,SID104198243,1.05,2.48,5735,5559
Cdk7,SID104202684,4.47,18.1,6156,6487
tamo,SID104184238,15.6,25.2,6306,5670
tamo,SID104203465,2.24,0.95,6600,6523
CG8757,SID104190831,0.35,1.7,6624,6358
CG8757,SID104203280,4.79,3.87,6622,6225
Mob3,SID104182583,3.67,1.51,6861,6543
Nha2,SID104194481,6.79,8.95,1266,6189
Nha2,SID104195411,3.76,6.59,6351,6932
Nha2,SID104195415,6.52,2.69,5662,6427
CG15594,SID104192072,4.28,4.13,6479,6659
EMC2B + EMC2A,SID104195033,11.7,21,6722,6581
PAN3,SID104187982,6.92,11.4,6081,5460
PAN3,SID104203912,3.33,6.35,5796,5767
Tudor-SN,SID104188373,4.73,6.96,5922,6074
CG9192,SID104188431,3.92,2.2,6194,5827
Acbp5,SID104190340,0.61,3.02,6545,6449
CG31760,SID104182382,1.72,1.31,6684,6886
CG31760,SID104205652,32.1,5.62,4665,6171

Already shown: an excerpt of the list.
gene knocked down,PubChem SID,"infection score, replicate 1","infection score, replicate 2","cell count, replicate 1","cell count, replicate 2"
Sytalpha,SID104182661,7.48,17.4,6374,4733
Mcad,SID104189663,9.95,10.8,6381,6000
Mcad,SID104204524,5.43,1,6633,6586
Cdk7,SID104198243,1.05,2.48,5735,5559
Cdk7,SID104202684,4.47,18.1,6156,6487
tamo,SID104184238,15.6,25.2,6306,5670
tamo,SID104203465,2.24,0.95,6600,6523
CG8757,SID104190831,0.35,1.7,6624,6358
CG8757,SID104203280,4.79,3.87,6622,6225
Mob3,SID104182583,3.67,1.51,6861,6543

Next results:
gene knocked down,PubChem SID,"infection score, replicate 1","infection score, replicate 2","cell count, replicate 1","cell count, replicate 2"
CenG1A,SID104182330,8.06,5.69,5557,6121
CenG1A,SID104183297,2.4,3.17,6046,6190
CenG1A,SID104183298,2.18,9.71,6427,6274
CenG1A,SID104206573,16.6,0.28,2028,354
CSN5,SID104196384,14.8,9.15,5202,5936
CSN5,SID104201861,1.46,20.2,5885,5293
CSN5,SID104206448,9.41,46.2,5697,3984
CG10589,SID104191421,3.66,5.14,6610,6378
Vlet,SID104199637,2.46,7.55,6551,6131
Vlet,SID104205275,8.28,5.69,5774,6697
CR33283,SID104202276,0.68,4.18,6463,6580
PH4alphaSG1,SID104194872,3.59,10.7,1169,5207
CG14722,SID104194736,4.79,8.09,6434,6444
CG14722,SID104203284,20.8,6.43,6220,6317
CNMa,SID104188197,3.6,3.03,6200,6241
CG32027 (retired record),SID104189363,1.7,0.72,6281,6239
CG15406,SID104180212,1.99,1.32,6475,6674
CG15406,SID104206652,6.46,17.8,6103,6477
CG15120,SID104186334,1.83,4.76,6520,6408
CG8006,SID104190741,5.14,4.48,6638,6222
CG13694,SID104180155,7,26.4,6619,6299
Pgi,SID104187299,3.71,3.51,6504,6927
Obp56e,SID104186980,5.02,6.28,5902,6464
Cpr47Ea,SID104187125,4.33,11.1,6375,5777
CG33278,SID104190128,1.74,6.65,6221,5532
CG33278,SID104205108,1.52,1.26,5539,5634
Uch-L5,SID104191106,8.09,2.15,6055,6363
Uch-L5,SID104206280,7.9,17.4,6396,6804
Ge-1,SID104182730,9.13,12.1,6188,5466
Ge-1,SID104207371,19.2,6.03,5662,4479
DUBAI,SID104187073,23.7,13.4,3276,6059
Naa30A,SID104202571,2.03,4.91,6545,6883
Naa30A,SID104208624,3.9,6.18,6849,5806
Vago,SID104199625,4.21,8.69,6630,6102
Vago,SID104204864,1.13 (active),0.58,6842,6336
CG17652,SID104180303,17,4.73,5394,6597
CG13455,SID104189794,1.42,7.58,6704,7128
CG15710,SID104186373,14.1,11.9,5561,5724
lncRNA:CR30055,SID104201910,2.65,11.1,6003,3850
lncRNA:CR30055,SID104205050,2.37,2.79,6068,5851
for,SID104179987,2.64,2.79,5533,5378
for,SID104180610,5.12,3.09,6092,6669
for,SID104203649,0.91,1.09,6032,6142
CR11386 + CR33222,SID104197573,2.57,1.48,6232,6492
CR11386 + CR33222,SID104202980,2.34,3.95,6208,6050
PGRP-SC1a + PGRP-SC1b,SID104203840,1.96,3.31,6331,5957
jp,SID104182005,2.17,2.21,6172,5970
CG31897,SID104180812,1.18,1.27,6635,6614
